Reference: paper PMC3578765 (PLoS Neglected Tropical Diseases, 2013)

Legend:
Conditions in all cases: SI = CC50/EC50
[1] = tested on: DENV2 (BR DEN2 01-01) infection in Huh-7.5; assay: image-based dengue HT/HCA, 10-pt dose-response hit confirmation, DENV2; assay type: cell-based, Dengue virus
Experimental: (§1) An immunofluorescence assay (IFA) used to detect dengue infection was optimized for the dengue HT/HCA. Briefly, cells were fixed with 4% (w/v) paraformaldehyde (PFA) for 20 min at room temperature (Rm T). PFA-fixed cells were treated with 0.25% (v/v) Triton-X for 20 min at Rm T. DENV-infected cells were detected by probing with 4G2 mAb prepared in blocking buffer: DPBS containing 5% FBS for 30 min at 37°C, followed by AlexaFluor-conjugated goat anti-mouse IgG (H+L) (Invitrogen Molecular Probes, USA) prepared in blocking buffer for 30 min at 37°C. Cell nuclei counterstained with 5 µg/mL 4′,6-diamidino-2-phenylindole (DAPI, Sigma-Aldrich, USA). Two washing cycles of DPBS was done after each step of the IFA. After the final washing, digital images were acquired using a high-throughput confocal fluorescence imaging system (Evotec Technologies High-Throughput Cell Analyzer Opera, Perkin Elmer, USA). The digital images were taken from 3 different fields of each well at 20× magnification.
(§2) Acquired images were analyzed using our in-house developed image-mining platform (IM). This platform is designed to do high-content screening and directly access the database of images that were sequentially analyzed with specially designed algorithms developed as a customized plug-in to the IM platform. The results of all the analyses were stored in a centralized database. […] One channel (DAPI-channel) captures the signal emitted by DAPI-stained nuclei at 450 nm, while the other channel (A488-channel) captures the signal emitted by the AlexaFluor 488 dye bound to the dengue E protein-antibody complexes confined in the cytoplasm of dengue-infected cells at 540 nm. To define the percentage of dengue-infected cells and, conversely the non-infected cells, a modified watershed method was applied. Compared to the original watershed algorithm that uses the morphological gradient image, a weighted gradient image is used for the topographic surface, whose weights are defined as the ridge values computed from the eigen values of the original image. The percentage of non-infected cells, which is also defined as the percent inhibition or percent activity, is derived by using the formula: [1−(A488-positive cells/total cells)]×100%.
(§3) The BioFocus kinase inhibitor library were screened against DENV1, DEN2, DENV3 and DENV4 at 10 µM in 0.5% (v/v) DMSO. MOCK-infected Huh-7.5 and IFN-α2A (500 U/mL) were used as positive controls, and the 0.5% DMSO vehicle was used as negative control. Four sets of 15 384-well plates (13 plates designated for test compounds and 2 plates designated for DMSO vehicle control) were used for the primary screening of the BioFocus kinase inhibitor library against each dengue serotype. Each of the 4,000 compounds in the library was tested in single wells. For data normalization and quality control of the screening, each test compound plate contained 16 replicates of the positive and negative controls. After dispensing the test compounds IFN-α2A and DMSO vehicle in the 384-well plates, Huh-7.5 was mixed with DENV1, DENV2, DENV3, or DENV4 to achieve a M.O.I. of 0.5 and dispensed at 5×10^3 cells/well using the Thermo Scientific WellMate automated liquid dispenser. For the MOCK-infected Huh-7.5, the cells were mixed with VM and dispensed under the same conditions as previously stated. Virus infection in the presence of the compounds proceeded at 37°C, 5% CO2 for 96 hrs. Compound activity based on percent inhibition and cell toxicity was assessed by IFA and IM analysis as described above. Scatter-plot distribution of the entire screening was generated using TIBCO Spotfire 4.5.0 (TIBCO Software Inc., Somerville, MA).
(§4) The calculated activity was normalized to a percent inhibition (PI) based on the MOCK-infected cells (100% activity, or zero infection) and dengue-infected cells (0% activity, or maximum measured infection percentage) controls according to the formula: [drawing 1] where: PImeasured - percent inhibition of test compound […]

[2] = tested on: DENV1 (Den1 BR/90) infection in Huh-7.5; assay: image-based dengue HT/HCA, 10-pt dose-response hit confirmation, DENV1; assay type: cell-based
Experimental: as §1, §2, §3, §4

[3] = tested on: DENV3 (BR DEN3 290-02) infection in Huh-7.5; assay: image-based dengue HT/HCA, 10-pt dose-response hit confirmation, DENV3; assay type: cell-based, Dengue virus
Experimental: as §1, §2, §3, §4

[4] = tested on: DENV4 (DEN4 TVP-360) infection in Huh-7.5; assay: image-based dengue HT/HCA, 10-pt dose-response hit confirmation, DENV4; assay type: cell-based, Dengue virus
Experimental: as §1, §2, §3, §4

Compound	SI DENV2 [1]	SI DENV1 [2]	SI DENV3 [3]	SI DENV4 [4]
NC(Cc1ccc(Cl)cc1)c1csc(Nc2ccc(S(N)(=O)=O)cc2)n1 (stereo not shown) [CND0968]	4.6	< 1.2	4.7	26
CCCc1cnc(Nc2nc(C(N)Cc3ccccc3)cs2)nc1 (stereo not shown) [CND0975]	8	44	< 1.0	< 1.0
COc1ccc(CC(N)c2csc(Nc3nccc(NCc4ccco4)n3)n2)cc1 (stereo not shown) [CND1020]	1.9	6.4	7.3	
NC(Cc1ccccc1)c1csc(Nc2ccccn2)n1 (stereo not shown) [CND1043]	14	10	7.5	6.2
COc1cccc(Nc2nc(C(N)CC(C)C)cs2)n1 (stereo not shown) [CND1057]	23	7.0	7.9	2.3
NC(Cc1ccc(C(F)(F)F)cc1)c1csc(Nc2ncccn2)n1 (stereo not shown) [CND1081]	> 48	> 66	> 32	8.3
NC(Cc1ccc(C(F)(F)F)cc1)c1csc(Nc2nccc(NCCCO)n2)n1 (stereo not shown) [CND1172]	1.4	2.1	3.1	2.0
COc1ccc(CC(N)c2csc(Nc3ncccn3)n2)cc1 (stereo not shown) [CND1201]	> 13	> 111	> 38	> 20
NC(c1csc(Nc2ncccn2)n1)c1ccccc1Cl (stereo not shown) [CND1203]	> 24	> 59	> 43	> 20
Nc1ccc(CC(N)c2csc(Nc3ncccn3)n2)cc1 (stereo not shown) [CND1243]	> 16	> 24	> 100	> 14
CS(=O)(=O)c1cnc(Nc2nc(C(N)Cc3ccc(Cl)cc3)cs2)nc1 (stereo not shown) [CND1244]	7.2	12	13	4.8
